Measured data: PubChem BioAssay AID1259414 (Drosophila RNAi Screening Center, 2018)

- Screen: 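Host factors increasing or decreasing Wolbachia levels in cultured fly cells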 (primary screen)
- Cells: Drosophila JW18 cells infected with Wolbachia
- Reagent: long dsRNA against Drosophila genes, 0.25 µg dsRNA per well of a 384-well plate
- Timing: 5 days
- Challenge: cells persistently infected with Wolbachia before knock-down; no added drug
- Detection: 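Imaged fluorescence in situ signal for Wolbachia 23S rRNA per DAPI-counted host cell, given as a robust z-score within each plate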
- Scale: Wolbachia per cell robust z: higher = more Wolbachia per host cell than the plate typical
- Active means: 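Hit when robust z is 1.5 or more, or -1.5 or less, in at least two of three replicates; excludes dsRNAs with several or no targets, genes not expressed in JW18 and well A1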
In all, the deposit lists about 24,000 reagents; shown is an unselected part of those that have a named target and a result. Over the whole deposit, about 1,210 (5%) are marked active. 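Inactive calls also include excluded dsRNAs with several or no targets, genes unexpressed in JW18, and well A1, regardless of score.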 A number with no mark means an inactive call. The numbers tell different reagents against one gene apart.

Zip89B #1 → Wolbachia per cell robust z, rep 1: -0.078; Wolbachia per cell robust z, rep 2: -0.159; Wolbachia per cell robust z, rep 3: -0.234
Zip89B #2 → Wolbachia per cell robust z, rep 1: -1.33; Wolbachia per cell robust z, rep 2: -3.02; Wolbachia per cell robust z, rep 3: -0.163
Eaat1 → Wolbachia per cell robust z, rep 1: -3.78; Wolbachia per cell robust z, rep 2: -1.54; Wolbachia per cell robust z, rep 3: -0.366
Elovl7 #1 → Wolbachia per cell robust z, rep 1: 0.519; Wolbachia per cell robust z, rep 2: -0.189; Wolbachia per cell robust z, rep 3: -7.59
Elovl7 #2 → Wolbachia per cell robust z, rep 1: 0.202; Wolbachia per cell robust z, rep 2: 0.024; Wolbachia per cell robust z, rep 3: -0.911
Elovl7 #3 → Wolbachia per cell robust z, rep 1: 1.66; Wolbachia per cell robust z, rep 2: -0.945; Wolbachia per cell robust z, rep 3: 3.13
DIP-beta #1 → Wolbachia per cell robust z, rep 1: -1.28; Wolbachia per cell robust z, rep 2: 0.16; Wolbachia per cell robust z, rep 3: -0.127
DIP-beta #2 → Wolbachia per cell robust z, rep 1: -1.67; Wolbachia per cell robust z, rep 2: 0.148; Wolbachia per cell robust z, rep 3: -1.67
DIP-beta #3 → Wolbachia per cell robust z, rep 1: -0.306; Wolbachia per cell robust z, rep 2: 0.0179; Wolbachia per cell robust z, rep 3: -0.339
DIP-beta #4 → Wolbachia per cell robust z, rep 1: 0.613; Wolbachia per cell robust z, rep 2: -0.398; Wolbachia per cell robust z, rep 3: 0.617
CG15425 #1 → Wolbachia per cell robust z, rep 1: -2.68; Wolbachia per cell robust z, rep 2: 0.171; Wolbachia per cell robust z, rep 3: -0.895
CG15425 #2 → Wolbachia per cell robust z, rep 1: 0.422; Wolbachia per cell robust z, rep 2: 0.735; Wolbachia per cell robust z, rep 3: 1.48
Eig71Ei #1 → Wolbachia per cell robust z, rep 1: -5.85; Wolbachia per cell robust z, rep 2: 1.13; Wolbachia per cell robust z, rep 3: -1.43
Eig71Ei #2 → Wolbachia per cell robust z, rep 1: 0.682; Wolbachia per cell robust z, rep 2: -0.236; Wolbachia per cell robust z, rep 3: -1.64
CG18810 → Wolbachia per cell robust z, rep 1: 1.31; Wolbachia per cell robust z, rep 2: -0.145; Wolbachia per cell robust z, rep 3: -0.623
CG13038 → Wolbachia per cell robust z, rep 1: -1.06; Wolbachia per cell robust z, rep 2: -0.0654; Wolbachia per cell robust z, rep 3: 0.737
